# According to IntAct's records for PubMed 24418540:
# Molecular target: cul5_human CUL5 (UniProt Q93034)
row,Substance,effect of a mutation on the interaction
1,"Virion infectivity factor (Human immunodeficiency virus type 1 group M subtype B (isolate HXB2) (HIV-1)), P69723 W38A",disrupting interaction strength
2,"Virion infectivity factor (Human immunodeficiency virus type 1 group M subtype B (isolate HXB2) (HIV-1)), P69723 E88A;W89A",disrupting interaction strength
3,"Virion infectivity factor (Human immunodeficiency virus type 1 group M subtype B (isolate HXB2) (HIV-1)), P69723 W21A",disrupting interaction strength
4,"Virion infectivity factor (Human immunodeficiency virus type 1 group M subtype B (isolate HXB2) (HIV-1)), P69723 W89A",disrupting interaction strength
